Anti-infective test results gathered from many reports (values: NIAID ChemDB through PubChem).

Common to all: toxicity to cultured cells; cells: VERO; endpoint: CC50

CCn: concentration that lowers growth or viability of the cells by n%.

structure	read by	value
C=C1CCC2C(C)(COC(=O)CCCCCCCCCCCCCCC)C(OC(=O)CCCCCCCCCCCCCCC)CCC2(C)C1C/C=C1\C(=O)OCC1O	crystal violet	4.2 µM
CCO[C@@]1(C)Cc2cocc2[C@@H](OC(=O)[C@H](O)[C@@H](NC(=O)c2ccccc2)c2ccccc2)[C@@H]2CC(C)(C)C[C@@H]21		190.9 µg/mL
C=C1CCC2C(C)(CO)C(O)CCC2(C)C1/C=C/C1=CCOC1=O	crystal violet	243.4 µM
COc1cc(/C=C/c2ccccc2)oc(=O)c1		>102 µg/mL
CCCCCCCCCCCCCC(=O)Nc1nc(N)nc2c1ncn2[C@H]1CO[C@@H](COP(=O)(N[C@@H](C)C(=O)OCC)Oc2ccccc2)O1		13 µM
O=c1c2cccc(Cl)c2[nH]c2cc(O)cc(O)c12		52 µM
CCN(CC)c1cc(-c2ccc(O)cc2O)on1		121 µM
CN(C)C(=O)COC(=O)Cc1ccc(OC(=O)c2ccc(N=C(N)N)cc2)cc1.COS(=O)(=O)O	MTT	>500 µg/mL
Cc1cn([C@H]2C=C(F)[C@@H](CO)O2)c(=O)[nH]c1=O		>100 µM
CCc1nc2ccc(Cl)cn2c1C(=O)NCc1ccc(N2CCSCC2)c(F)c1		>32 µM
O=c1[nH]cnc2c1ncn2[C@H]1C=C(F)[C@@H](CO)O1		>100 µM
Nc1ncnc2c1ncn2C[C@H]1C[C@H]1[C@H](O)CO		>100 µM
CC1(C)C[C@H]2C=C(COC(=O)[C@H](O)[C@@H](NC(=O)c3ccccc3)c3ccccc3)[C@@]3(C=O)C[C@]3(C)[C@H]2C1		109.1 µg/mL
Nc1nc(Cl)nc2c1ncn2[C@H]1O[C@H](CO)[C@@H](F)[C@@H]1F		>100 µM
Cc1cn2c(C(=O)NCc3ccc4c(c3)CCO4)c(C)nc2s1		>32 µM
Nc1nc2c(ncn2COC(CO)CCP(=O)(O)O)c(=O)[nH]1		>1000 µM
C=CCc1nc(C)n2c(=O)[nH]cnc12		200 µg/mL
CCN(CC)C(=O)c1ccc2nc3ccccc3c(NC3CCN(Cc4ccccc4)CC3)c2c1		55 µM
O=c1c2cc(Cl)ccc2[nH]c2cc(O)cc(O)c12		60 µM
CC(=O)O[C@H]1[C@@H](OC(C)=O)[C@@H](CO[Si](c2ccccc2)(c2ccccc2)C(C)(C)C)O[C@@H](O[C@H]2[C@H](OC(C)=O)[C@H]3Sc4c(n(C)c(=O)n(C)c4=O)O[C@H]3O[C@@H]2CO[Si](c2ccccc2)(c2ccccc2)C(C)(C)C)[C@@H]1OC(C)=O		>100 µM
COc1ccc(-c2cc(N(C)C)no2)c(O)c1		>427 µM
Cc1ccn2c(C(=O)NCc3ccc(N4CCC5(CC4)OCC(C)CO5)c(F)c3)c(C)nc2c1		>32 µM
CC1(C)C[C@H]2[C@H](OC(=O)[C@H](O)[C@@H](NC(=O)c3ccccc3)c3ccccc3)c3cocc3C[C@](C)(O)[C@H]2C1		289.7 µg/mL
Nc1ccn([C@H]2C=C(F)[C@@H](CO)O2)c(=O)n1		>100 µM
CCOc1ccc(-c2cc(N(CC)CC)no2)c(O)c1		>362 µM
CCCCS(=O)(=O)Nc1ccc2[nH]c(C(=O)NC3COC3)c(C)c2c1	resazurin	>140 µM
COc1cc2ccnc3c2c(c1OS(=O)(=O)c1ccccc1)N(C)C=C3		27.3 µM
CCCCCS(=O)(=O)Nc1ccc2[nH]cc(C)c2c1	resazurin	180 µM
Cn1c2c(c(=O)n(C)c1=O)S[C@H]1[C@@H](O2)O[C@H](COc2ccccc2)[C@@H](OCc2ccccc2)[C@@H]1OCc1ccccc1		>100 µM
NC1=NC=NC2C1N=CN2[C@H]1C[C@@H](CCP(=O)(O)O)CO1	MTT	>100 µg/mL
Cc1cn([C@@H]2C[C@@H](F)[C@H](CO)O2)c(=O)[nH]c1=O		>100 µM
COc1cccc([C@H](c2cc3cc(C#N)ccc3nc2OC)[C@@](O)(CCN(C)C)c2cc(C)cc(C)n2)c1F		>10 µg/mL
O=C(c1ccccc1)c1nc2cc(Cl)ccc2o1		4 µg/mL
COc1cc2c3c(ccnc3c1OC)NC=C2		23.1 µM
CCCC(=O)Nc1nc(N)nc2c1ncn2[C@H]1CO[C@@H](COP(=O)(N[C@@H](C)C(=O)OCC)Oc2ccccc2)O1		>100 µM
CCCCCCCCC[n+]1ccc2cc(OC)c(OC)c3c2c1C=CN3		7.1 µM
C=C1CCC2C3(C)COC(C)(C)OC3CCC2(C)C1/C=C/C1=CCOC1=O	crystal violet	44.9 µM
Cn1c2c(c(=O)n(C)c1=O)S[C@H]1[C@@H](O2)O[C@H](CO)[C@@H](O)[C@@H]1O		>100 µM
COc1cc2cc[n+](C)c3c2c(c1OC)NC=C3		58.4 µM
CCCCCS(=O)(=O)Nc1ccc2[nH]c(Br)c(C)c2c1	resazurin	69 µM
COc1cc(CCc2ccc3c(c2)OCO3)oc(=O)c1		41.96 µg/mL
O=C(c1ccccc1)c1nc2ccccc2s1		62 µg/mL
CN1CCN(C(=O)c2ccc3nc4ccccc4c(NCCc4c[nH]c5ccccc45)c3c2)CC1		45 µM
C=C1CCC2C(C)(CO)C(O)CCC2(C)C1C/C=C1\C(=O)OCC1OC(C)=O	crystal violet	6.6 µM
CCc1nc2ccc(Cl)cn2c1C(=O)NCc1cccc(S(F)(F)(F)(F)F)c1		>32 µM
Nc1ncnc2c1ncn2C[C@H]1C[C@H]1CO		>100 µM
CCc1nc2ccc(Cl)cn2c1C(=O)NCc1ccc(NCCN2CCOCC2)c(F)c1		>32 µM
O=c1ccn([C@H]2C=C(F)[C@@H](CO)O2)c(=O)[nH]1		>100 µM
C[C@]1(Cn2cnc3c(=O)[nH]c(N)nc32)[C@H](COCP(=O)(O)O)C1(F)F		>100 µM
CCN(CC)C(=O)c1ccc2nc3ccccc3c(NCCc3c[nH]c4ccccc34)c2c1		45 µM
Cc1nc(CC(O)CO)c2nc[nH]c(=O)n12		>400 µg/mL
CCN(CC)Cc1cc(N(c2cc(C)nc3cc(Cl)ccc23)S(=O)(=O)c2ccc(Cl)s2)ccc1O	resazurin	60.13 µg/mL
COc1cc2ccnc3c2c(c1OCCCCCCOc1c(OC)cc2ccnc4c2c1N(C)C=C4)N(C)C=C3		1.2 µM
CCOC(=O)c1ccc(OC(=O)CCCCCN=C(N)N)cc1.COS(=O)(=O)O	MTT	150 µg/mL
COc1cccc([C@H](c2cc3cc(C#N)ccc3nc2OC)[C@@](O)(CCN(C)C)c2cncc(C)c2)c1OC		>10 µg/mL
CCCCS(=O)(=O)Nc1ccc2[nH]c(C(=O)NCC(C)C)c(C)c2c1	resazurin	>140 µM
Nc1nc2c(ncn2COC(CO)CO)c(=O)[nH]1		450 µM
CC(=O)CCCCCCCCCCCCCCc1ccc2c(c1)OCO2		>102 µg/mL
CCOC(=O)[C@H](C)NP(=O)(OC[C@@H]1OC[C@H](n2cnc3c(NC(C)=O)nc(N)nc32)O1)Oc1ccccc1		>100 µM
CCCCCC[n+]1ccc2cc(OC)c(OC)c3c2c1C=CN3		11.8 µM
Cc1nc(Cc2ccccc2)c2[nH]c(=S)[nH]c(=O)n12		100 µg/mL
C[C@]1(CO)[C@H](Cn2cnc3c(=O)[nH]c(N)nc32)C1(F)F		>100 µM
Nc1nc2c(ncn2[C@@H]2C=C(F)[C@H](CO)O2)c(=O)[nH]1		>100 µM
CCCCCCCCCCCCCCCC(=O)Nc1nc(N)nc2c1ncn2[C@H]1CO[C@@H](COP(=O)(N[C@@H](C)C(=O)OCC)Oc2ccccc2)O1		>100 µM
CCCCS(=O)(=O)Nc1ccc2[nH]c(C(=O)N3CCN(C)CC3)c(C)c2c1	resazurin	>130 µM
COc1cccc([C@H](c2cc3cc(Br)ccc3nc2OC)[C@@](O)(CCN(C)C)c2cncc(C)c2)c1F		>10 µg/mL
CCc1nc2sc(C)cn2c1C(=O)NCc1ccc(N2CCC(c3ccc(OC(F)(F)F)cc3)CC2)cc1		>32 µM
CCCCCCCCCCCCCCCCO[C@H]1N([C@H]2C[C@H](N=[N+]=[N-])[C@@H](CO)O2)C(=O)NC(=O)[C@]1(C)Br	MTT	>500 µg/mL
Cc1ccn2c(C(=O)NCc3ccc(N4CCC(c5ccc(C(F)(F)F)cc5)CC4)nc3)c(C)nc2c1		>32 µM
CCCCS(=O)(=O)Nc1ccc2[nH]c(C(=O)Nc3ccc4ccccc4c3)c(C)c2c1	resazurin	>110 µM
Nc1ncnc2c1ncn2[C@@H]1C[C@@H](F)[C@H](CO)O1		>100 µM
CCc1nc2ccc(Cl)cn2c1C(=O)NCc1ccc(N2CCC3(CC2)OC[C@H](C)O3)c(F)c1		>32 µM
COc1cccc([C@H](c2cc3cc(C#N)ccc3nc2OC)[C@@](O)(CCN(C)C)c2cc(C)cc(C)n2)c1OC		>10 µg/mL
CCCCS(=O)(=O)Nc1ccc2[nH]c(CNC(=O)c3ccccc3)c(C)c2c1	resazurin	130 µM
CC1=C(CCO)C(=O)C(O)=C2C1=CC(=O)[C@@H]1C(C)(C)CCC[C@@]21C		12.7 µg/mL
CCCCCCCCCCCC(=O)Nc1nc(N)nc2c1ncn2[C@H]1CO[C@@H](COP(=O)(N[C@@H](C)C(=O)OCC)Oc2ccccc2)O1		45 µM
CCCCS(=O)(=O)Nc1ccc2[nH]c(C(=O)NC)c(C)c2c1	resazurin	>150 µM
O=c1ccn(C[C@H]2C[C@H]2[C@H](O)CO)c(=O)[nH]1		>100 µM
O=C(O)CP(=O)(O)O		>500 µM
N[C@H](Cc1ccc(-c2ccccc2)cc1)C(=O)O	MTT	>400 µM
Nc1nc2c(ncn2CC[C@@H](CO)OCP(=O)(O)O)c(=O)[nH]1		>100 µg/mL
O=c1[nH]cnc2c1ncn2C[C@H]1C[C@H]1CO		>100 µM
Oc1ccccc1Cc1nc2cc(Cl)ccc2o1		62 µg/mL
Nc1nc2c(ncn2COC2COP(=O)(O)OC2)c(=O)[nH]1		40 µM
Nc1ccn(CC[C@@H](CO)OCP(=O)(O)O)c(=O)n1		>100 µg/mL
CC(O)(c1ccccc1)c1nc2ccccc2o1		31 µg/mL
Nc1ncnc2c1ncn2[C@H]1O[C@H](CO)[C@@H](F)[C@@H]1F		>100 µM
CC(=O)O[C@@H]1C2=C(C[C@](C)(O)[C@H]3C[C@](C)(COC(=O)[C@H](O)[C@@H](NC(=O)c4ccccc4)c4ccccc4)C[C@@H]13)C(=O)OC2		419.7 µg/mL
COc1ccc(-c2cc(N3CCCC3)no2)c(O)c1		>384 µM
Nc1ccn([C@@H]2O[C@@H](CO)[C@H](O)C2(F)F)c(=O)n1		>100 µM

The last 9 rows once more:

structure	read by	value
O=c1[nH]cnc2c1ncn2C[C@H]1C[C@H]1CO		>100 µM
Oc1ccccc1Cc1nc2cc(Cl)ccc2o1		62 µg/mL
Nc1nc2c(ncn2COC2COP(=O)(O)OC2)c(=O)[nH]1		40 µM
Nc1ccn(CC[C@@H](CO)OCP(=O)(O)O)c(=O)n1		>100 µg/mL
CC(O)(c1ccccc1)c1nc2ccccc2o1		31 µg/mL
Nc1ncnc2c1ncn2[C@H]1O[C@H](CO)[C@@H](F)[C@@H]1F		>100 µM
CC(=O)O[C@@H]1C2=C(C[C@](C)(O)[C@H]3C[C@](C)(COC(=O)[C@H](O)[C@@H](NC(=O)c4ccccc4)c4ccccc4)C[C@@H]13)C(=O)OC2		419.7 µg/mL
COc1ccc(-c2cc(N3CCCC3)no2)c(O)c1		>384 µM
Nc1ccn([C@@H]2O[C@@H](CO)[C@H](O)C2(F)F)c(=O)n1		>100 µM

Blank or dashed fields: not listed here. Neighbouring rows are from separate reports.